One compound from ChEMBL document CHEMBL1139785, “Synthesis of novel HIV protease inhibitors (PI) with activity against PI-resistant virus” (Bioorg Med Chem Lett, 2007) can be followed below.

The assay deals with Protease (Human immunodeficiency virus 1, UniProt Q9YQ12). As to the kind of experiment: Inhibition of wild type HIV1 NL4-3 protease.

On to `CC(C)(C)NC(=O)[C@@H]1CN(Cc2cccnc2)CCN1C[C@@H](O)CC(Cc1ccccc1)C(=O)N[C@H]1c2ccccc2C[C@H]1O` (single isomer, unassigned) [INDINAVIR], for which the IC50 amounted to 0.6 nM.

By IC50 is commonly meant the concentration that inhibits the measured activity by half.
